The source of these data is the supplement of paper PMC12637763.

The list shows a part of the results. Env chains of viruses from a treatment-interruption trial, translated from the printed DNA. IC50 / IC80 of two broadly neutralizing antibodies; lower = more sensitive virus; >50 µg/ml means not reached and <0.001 µg/ml is below the lowest dose. No active / inactive call. Some results are limits rather than exact numbers.

Experiment [1] has as its target antibody 10-1074. The experiment in a line: neutralization IC50; higher = virus less sensitive to the antibody. As for the experimental part:
(§1)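 Pseudovirus bearing the Env chain mixed with antibody, from 50 µg/ml in fivefold dilutions, on TZM-bl reporter cells, in duplicate.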

For experiment [2], the target named is antibody 3BNC117. The description is as above. As to the method: as §1
Experiment [3] deals with antibody 10-1074. As to the kind of experiment: neutralization IC80; higher = virus less sensitive to the antibody. As to the method:
as §1

Experiment [4] addresses antibody 3BNC117. Described as above. As for the experimental part: as §1

B1: HIV-1 Env, reservoir clone (protein)
chain: MKAKETRKNYQHLWRWGIMLLGMLMICSAASQLWVTVYYGVPVWKEATTTLFCASDAKAYDTEVHNVWATHACVPTDPNPQEVVLGNVTEDFNMWKNNMVEQMHEDIISLWDQSLKPCVKITPLCVTLNCTEYRNATSTTWGQMEKGEIKNCSFNVTTNIKNKMQKEYALFYKLDVVPIGDNSTNYRLIKCNTSAITQACPKVSFQPIPIHYCAPAGFAILKCNNKTFNGLGPCTNVSTVQCTHGIRPVVSTQLLLNGSLAEEEIVIRSENFSDNAKIIIVHLNASIEINCTRPNNNTRKSITIGPGRAFYATGDVIGDIRQAHCNISGEKWNEALKQIAIKLREQFGHNKTIVFNQSSGGDPEIVAHSVNCGGEFFYCNSTKLFNSTWTRNNTTESNETITLPCKIKQIINLWQEVGKAIYAPPISGPIRCSSNITGLLLTRDGGNTSETNKETFRPGGGDMRDNWRSELYKYKVVKIEPLGVAPTKAKRRVVQRERRAVGTFGALFLGFLGTAGSTMGAASITLTVQARQLLSGIVQQQNNLLKAIEAQQHLLQLTVWGIKQLQARVLAVERYLKDQQLLGLWGCSGKLICTTTVPWNASWSNKSLEQIWENMTWMQWEKEIDNYTGIIYSLISESQLQQEKNEKELLELDKWASLWTWFDITNWLWYIRIFIMIVGGLIGLRIVFAVLSIVNRVRKGYSPLSFQTRLPTPRGPDRPEGIEEEGGERGRDTSIRLVDGFLALIWDDLRNLCLFSYHHLRDLILIVVRTVELLGRRGWELLKYWWNLLKYWSQELKKSAVSLFNAAAIAVAEGTDRVIEVVQRAGRGILHVPRRIRQGLERALQ
Take B1: the “neutralization IC50” value in the experiment with antibody 10-1074 [1] is less than 0.001 µg/mL; with antibody 3BNC117 [2] it was 0.021 µg/mL. Besides, the “neutralization IC80” value with antibody 10-1074 [3] was determined as 0.001 µg/mL; with antibody 3BNC117 [4], 0.117 µg/mL.

B2: HIV-1 Env, reservoir clone (protein)
chain: MKAKETRKNYQHLWRWGIMLLGMLMICSAASQLWVTVYYGVPVWKEATTTLFCASDAKAYDTEVHNVWATHACVPTDPNPQEVVLGNVTEDFNMWKNNMVEQMHEDIISLWDQSLKPCVKITPLCVTLNCTEYSNATSTTGGQMEKGEIKNCSFNVTTNIKNKMQKEYALFYKLDVVPIGDNSTNYRLIKCNTSAITQACPKVSFQPIPIHYCAPAGFAILKCNNKTFNGLGPCTNVSTVQCTHGIRPVVSTQLLLNGSLAEEEIVIRSENFSDNAKNIIVHLNASIEINCTRPNNNTRKSITIGPGRTFYATGDVIGDIRQAHCNISGEKWNEALKQIAIKLREQFGHNKTIVFNHSSGGDPEIVAHSVNCGGEFFYCNSTKLFNSTWHSNGTQNNTTESNETITLPCKIKQIINLWQEVGKAIYAPPISGPIRCSSNITGLLLTRDGGNTSETNKETFRPGGGDMRDNWRSELYKYKVVKIEPLGVAPTKAKRRVVQRERRAVGTFGALFLGFLGTAGSTMGAASITLTVQARQLLSGIVQQQNNLLKAIEAQQHLLQLTVWGIKQLQARVLAVERYLKDQQLLGLWGCSGKLICTTTVPWNASWSNKSLEQIWENMTWMQWEKEIDNYTGIIYSLISESQLQQEKNEKELLELDKWASLWTWFDITNWLWYIRIFIMIVGGLIGLRIVFAVLSIVNRVRKGYSPLSFQTRLPTPRGPDRPEGIEEEGGERGRDTSIRLVDGFLALIWDDLRNLCLFSYHHLRDLILIVVRTVELLGRRGWELLKYWWNLLKYWSQELKKSAVSLFNAAAIAVAEGTDRVIEVVQRAGRGILHVPRRIRQGLERALQ
On to B2, for which the “neutralization IC50” value with antibody 10-1074 [1] is less than 0.001 µg/mL; with antibody 3BNC117 [2] it was 0.027 µg/mL. Further, the “neutralization IC80” value is less than 0.001 µg/mL with antibody 10-1074 [3] and 0.169 µg/mL in the experiment with antibody 3BNC117 [4].

B3: HIV-1 Env, reservoir clone (protein)
chain: MKVRVMQRNWQHLGRWGLLFLGLLICCNATEQLWVTVYYGVPVWKEATTTLFCASDAKGYEKEAHNVWATHACVPTDPNPQEIPLVNVTENFNMWKNNMVEQMQTDIISLWDQSLKPCVKLTPLCVTLNCNNNIKWANGNNSTNPDMKNCSFNMTTEVRDKRLKVSALFYKIDLTPINKSSGEYRLINCNTSTIKQACPKVSWDPIPIHYCAPAGYAILKCRDKNFNGTGPCNNVSTVQCTHGIKPVVSTQLLLNGSLAEEDIVIRTQNISDNAKTIIVSLNESVSINCIRPGNNTRKSIHIGPGQVFYANNDIIGDIRKAFCTLNGTQWNKTLDRVKAKLRSLFNKTTIIFAQPSGGDLEVTMHSFNCRGEFFYCNTSGLFNDIDSNITLPCRIKQIINMWQGVGQAMYTAPIAGNITCVSNITGLLLTRDGGPDNDNETFRPGGGDMRDNWRSELYKYKVVEIEPLGIAPTRAKRQVVRRERRAVGIGAMFLGFLGAAGSTMGAASIALTVQARQLLSGIVQQQNNLLRAIEAQQHLLQLTVWGIKQLQARVLAVERYLKDQQLLGVWGCSGKLICTTSVPWNSSWSNKSQQEIWDNMTWMDWEREISNYSQTIYKLLEESQYQQDKNEQELLALDKWASLWNWFDISNWLWYIRIFIMIVGGLIGLRIVFAVLAIVNRVRKGYSPLSLQTLIPNSRGPDRPEGIEEGGGEQDRDRSVRLVNGFLALVWDDLRNLCLFSYRLLRDFILIAARTVDRGLRGGWKALKYLWNLTQYWSRELKDSAISLYNSIAIAVAEGTDRIIEALQIIVRGVLHIPRRIRQGLERALL
Consider B3, for which the entries for the “neutralization IC50” value with antibody 10-1074 [1] and with antibody 3BNC117 [2] were greater than 50 µg/mL and 0.043 µg/mL, respectively. The “neutralization IC80” value was greater than 50 µg/mL with antibody 10-1074 [3] and 0.707 µg/mL with antibody 3BNC117 [4].
